The text below walks through data of PMC11946258, “Self-Assembly, Antimicrobial Properties and Biodegradability of Ester-Functionalized Choline-Based Surface-Active Ionic Liquids” (Molecules, 2025).

Values joined by “and” are separate entries in the source; they are usually repeats but may differ in a detail not shown here. Equal entries are not always repeated.

The test system of this data set is microorganisms derived from activated sludge. Put plainly: Aerobic biodegradability, CO2 Headspace Test (OECD 310). To be noted: for Biodegradation (%) 28 Days: 95% confidence limits, four replicates.

Turning to `CCCCCCCCCCCCCCOC(=O)C[N+](C)(C)CCO.[Br-]` [C14ECholBr, N-(2-hydroxyethyl)-N,N-dimethyl-2-oxo-2-(tetradecyloxy)ethan-1-aminium bromide], the “Biodegradation (%) 7 Days” value is 29%; the “Biodegradation (%) 14 Days” value amounted to 34%; the “Biodegradation (%) 21 Days” value was 57%; the “Biodegradation (%) 28 Days” value was “more than 60% and 61 ± 3.0%”.

For the compound `CCCCCCCCCCCCOC(=O)C[N+](C)(C)CCO` [C12ECholBr], the “Biodegradation (%) 7 Days” value is 26%, the “Biodegradation (%) 14 Days” value was determined as 28%, the “Biodegradation (%) 21 Days” value was 46% and the “Biodegradation (%) 28 Days” value is 69 ± 5.5%.

For the compound `CCCCCCCCCCOC(=O)C[N+](C)(C)CCO` [C10ECholBr], the “Biodegradation (%) 7 Days” value is 10%, the “Biodegradation (%) 14 Days” value is listed as 19%, the “Biodegradation (%) 21 Days” value is given as 40% and the “Biodegradation (%) 28 Days” value is on record as 64 ± 2.9%.
